Some of the results follow. Env chains of viruses from a treatment-interruption trial, translated from the printed DNA. IC50 / IC80 of two broadly neutralizing antibodies; lower = more sensitive virus; >50 µg/ml means not reached and <0.001 µg/ml is below the lowest dose. No active / inactive call.
B1: HIV-1 Env, reservoir clone (protein)
chain: MRAKGIRKNYQDLLKGGILLLGILMICSAAGNLWVTVYYGVPVWKDATTTLFCASDAKGYSKEAHNVWATHACVPTDPDPREIVMGNVTENFNMWKNDMVDQMHEDIISLWDQSLKPCVKLTPLCVTLKCTNLNNTNSNTSNTNNNTSSENGTSNTNNNTSSENGSEEMKNCSFNVTTIKGKYQQEYAFLYKLDLVPIDNNDNTSYMLINCNTSVITQACPKISFEPIPIHYCAPAGFAILKCNNKTFNGTGPCTNVSSVQCTHGIRPVVSTQLLLNGSLAEEEVVIRSENFTDNAKTIIVQLKDPIQINCTRPNNNTRKSIHIAPGRAFYATGQIIGDIRQAYCNISKEQWNEALNQTVRKLREQFGNKTIFFNQSSGGDPEIVMHTFNCGGEFFYCNTTQLFNSTWDNTTNSTDSNNDTIKLPCRIKQVINRWQEVGKAMYAPPISGPIRCSSNITGLLLVRDGGNNNSSNSSETFRPGGGNMKDNWRSELYKYKVVKIEPLGVAPTKAKRRVVQRERRAVTLGAMFLGFLGTAGSTMGAASLTLTVQARQLLSGIVQQQSNLLRAIEVHQHMLQLTVWGIKQLQARVLAVERYLKDQQLLGIWGCSGKLICTTTVPWNASWSKKNLSEIWDNMTWIEWEREIQNYTEEIYSLIEKSQNQQAKNEQELLELDKWANLWNWFDITQWLWYIKIFIMIVGGLIGLRIVFTVLSIVNRVRQGYSPLSFQTRLPTQRGPDRPEGTEEEGGERDRDTSRPLVDGFLAIIWVDLRSLFLFSYHRLRDLLLIVTRIVETLGRRGWELLKYWWNLLQYWSQELKNSAISLLNATAITVAEGTDRVIELIQRAGRAIIHIPRRIRQGLESALL
B2: HIV-1 Env, reservoir clone (protein)
chain: MRVKGIKKNYHILWKGGIWKWGIMLLGMLMICSASAQLWVTVYYGVPVWKEAITTLFCASDAKAYDTEVHNVWATHACVPTDPNPQEVSLTNVTENFNMWKNNMVEQMHEDIISLWDQSLKPCVKLTPLCVTLNCTEYKGNNATNNATKNDSSIEEVMKGEIQQCSFNVTTNIKDKMQKEYALFYKSDLVPINDETRNNSTNNSTNYRLISCNTSVITQACPKVTFEPIPIHYCAPAGYAILKCNDKKFNGTGPCKNVSTVQCTHGIRPVVSTQLLLNGSLAEEEVVIRSENLTNNAKTIIVQLTKSVAINCTRPNNNTRKSIPIGPGRAFYTTGDIIGNIRQAHCNISGKDWNDTLKQIATKLREQFNKTTIAFNQSSGGDPEIVMHSFNCGGEFFYCNTAKLFNSNWNSTKSNSTEGNDTITIPCKIKQVINLWQEVGKAMYAPPIRGQIKCSSNITGLLLTRDGGNNTNETMEIFRPEGGDMRDNWRSELYKYKVVRIEPLGIAPTKAKRRVVQREKRAVGFGALFLGFLGAAGSTMGAASMTLTVQARQLLSGIVQQQNNLLRAIEAQQHLLQLTVWGIKQLQARVLAVERYLQDRQLLGIWGCSGKLICTTAVPWNNSWSNKSVDYIWNNMTWMQWEKEIENYTGTIYRLLEDSQNQQEKNEHELLELDKWASLWNWFDITKWLWYIKIFIMIVGGLIGLRIIFAVLSILNRVRQGYSPLSFQIRPPAQRGPDRPEGIEEEGGERDRDTSGQLARGFLAIFWVDLRSLCLFSYHHLRDLLLIAARIVELLGRRGWEALNYWWNLLQYWIQELKNSAVSLLNATAIAVAEGTDRIIEIIQRAGRAIIHIPRRIRQGLERLLL
B3: HIV-1 Env, reservoir clone (protein)
chain: MKAKETRKNYQHLWRWGIMLLGILMICSAASQLWVTVYYGVPVWKEATTTLFCASDAKAYDTEVHNVWATHACVPTDPNPQEVVLGNVTEDFNMWKNNMVEQMHEDIISLWDQSLKPCVKITPLCVTLNCTEYSNATSTTWGQMEKGEIKNCSFNVTTNIKNKMQKEYALFYKLDVVPIGDNSTNYRLIKCNTSAITQACPKVSFQPIPIHYCAPAGFAILKCNNKTFNGLGPCTNVSTVQCTHGIRPVVSTQLLLNGSLAEEEIVIRSENFSDNAKNIIVHLNASIEINCTRPNNNTRKSITIGPGRAFYATGDVIGDIRQAHCNISGEKWNEALKQIAIKLREQFGHNKTIVFNQSSGGDPEIVAHSVNCGGEFFYCNSTKLFNSTWHSNGTQNNTTESNETITLPCKIKQIINLWQEVGKAIYAPPISGPIRCSSNITGLLLTRDGGHTSETNKETFRPGGGDMRDNWRSELYKYKVVKIEPLGVAPTKAKRRVVQRERRAVGTFGALFLGFLGTAGSTMGAASITLTVQARQLLSGIVQQQNNLLKAIEAQQHLLQLTVWGIKQLQARVLAVERYLKDQQLLGLWGCSGKLICTTTVPWNASWSNKSLEQIWENMTWMQWEKEIDNYTGIIYSLISESQLQQEKNEKELLELDKWASLWTWFDITNWLWYIKIFIMIVGGLIGLRIVFAVLSIVNKVRKGYSPLSFQTRLPTPRGPDRPEGIEEEGGERGRDTSIRLVDGFLALIWDDLRNLCLFSYHHLRDLILIVVRTVELLGRRGWELLKYWWNLLKYWSQELKKSAVSLFNAAAIAVAEGTDRVIEVVQRAGRGILHVPRRIRQGLERALQ

biological target: antibody 10-1074; test: neutralization IC50; higher = virus less sensitive to the antibody
Experimental: (§1)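 Pseudovirus bearing the Env chain mixed with antibody, from 50 µg/ml in fivefold dilutions, on TZM-bl reporter cells, in duplicate.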

Row | Binder | neutralization IC50
1 | B1 | 1.58 µg/mL
2 | B2 | 0.243 µg/mL
3 | B3 | 0.001 µg/mL

biological target: antibody 3BNC117; test: as above
Experimental: as §1

Row | Binder | neutralization IC50
4 | B1 | 0.127 µg/mL
5 | B2 | 0.427 µg/mL
6 | B3 | 0.01 µg/mL

biological target: antibody 10-1074; test: neutralization IC80; higher = virus less sensitive to the antibody
Experimental: as §1

Row | Binder | neutralization IC80
7 | B1 | 13.4 µg/mL
8 | B2 | 0.586 µg/mL
9 | B3 | 0.003 µg/mL

biological target: antibody 3BNC117; test: as above
Experimental: as §1

Row | Binder | neutralization IC80
10 | B1 | 0.33 µg/mL
11 | B2 | 0.847 µg/mL
12 | B3 | 1.08 µg/mL

— the supplement of paper PMC12637763
